Anti-infective test results gathered from many reports (values: NIAID ChemDB through PubChem).

Common to all: target-level tests; organism: HIV-1; target: Integrase; read-out: IC50

ICn is the concentration giving n% inhibition.

SMILES,strain or isolate,mutations,read by,setting,value
O=C(/C=C/c1ccc(O)c(O)c1)O[C@@H]1CC(O)(C(=O)O)C[C@@H](OC(=O)/C=C/c2ccc(O)c(O)c2)C1O,LAI,,,,0.3 µM
Nc1nc2c(ncn2[C@H]2CC[C@@H](CO)O2)c(=O)[nH]1,,,3′ processing,,1000 µM
Cc1ccc(S(=O)(=O)n2cc(C(C(=O)O)C(=O)O)c3cc(NC(=O)c4cc(F)c(F)c(F)c4)ccc32)cc1,,G140S,strand transfer / fluorescence,,>25 µM
COc1c(O)ccc2c1-c1c3c(cc4ccnc(c14)C2=O)OCO3,,,,,18.2 µM
C[C@@H]1CC[C@@]2(C)C(C(=O)O)=CC(=O)CC2[C@@]1(C)CCC1=CCOC1=O,,,strand transfer / absorbance,,>50 µM
CCCCCC(=O)c1c(O)cc2c(c1O)C(=O)c1c(O)cc(O)cc1C2=O,,,3′ processing,Mg2+,>200 µM
CCOC(=O)C(C(=O)OCC)c1cn(Cc2cc(F)ccc2F)c2ccc(F)cc12,,G140S,strand transfer / fluorescence,,25.4 µM
CN(C)[C@H]1C(=O)C(C(=O)NCN2CCN(C(=N)N=C(N)N)CC2)=C(O)[C@]2(O)C(=O)C3=C(O)c4c(O)cccc4[C@](C)(O)[C@@H]3C[C@H]12,RF,,strand transfer,,0.3 µM
O=c1c(O)c(-c2ccc(O)c(O)c2)oc2cc(O)c(O)c(O)c12,,,,,1 µM
CC(C)(C)OC(=O)C(C)(C)n1c(=O)c(O)c2n(c1=O)CCN(Cc1ccc(F)cc1)C2=O,,,strand transfer,,<10 µM
CC1(C)OC(=O)/C(=C/C(=O)c2cn(Cc3cc(F)ccc3F)c3ccc(Br)cc23)O1,,,strand transfer / fluorescence,,10.5 µM
Cc1[nH]cnc1C(=O)NNC1=Nc2ccc(Br)cc2C(c2ccccc2Cl)=NC1,,,substrate cleavage,,2 µM
C[C@H](Cn1cnc2c(N)ncnc21)OCP(=O)(O)OP(=O)(O)OP(=O)(O)O,,,3′ processing,,65 µM
O=C(/C=C(\O)c1ccccc1)c1ncn[nH]1,,,3′ processing,,>100 µM
COc1ccc2c(c1O)-c1c(OC)c3c(c4c1[C@H](C2)N(C)CC4)OCO3,,,,,>100 µM
Nc1ncnc2c1ncn2CCOCP(=O)(O)OP(=O)(O)OP(=O)(O)O,,,3′ processing,,200 µM
COc1c(O)ccc2c1-c1c3c(c(OC)c4ccnc(c14)C2=O)OCO3,,,,,21.1 µM
CCOP(=O)(O)CCCCNC(=O)c1c(O)c2ncc(Cc3ccc(F)cc3)cc2n(C)c1=O,,,strand transfer,,<0.1 µM
Nc1ncnc2c1ncn2[C@H]1CC[C@@H](CO)O1,,,3′ processing,,>1000 µM
CN(C)C1C(=O)C(C(=O)NCNC(CCS(C)=O)C(=O)[O-])=C(O)C2(O)C(=O)C3=C(O)c4c(O)cccc4C(C)(O)C3CC12.[Na+],RF,,strand transfer,,1.7 µM
CC1(C)OC(=O)/C(=C/C(=O)c2cn(Cc3cc(F)ccc3F)c3ccc(F)cc23)O1,,Y143R,strand transfer / fluorescence,,16.4 µM
O=C(O)c1cc2ccccc2c(N=Nc2ccc(S(=O)(=O)Nc3nccs3)cc2)c1O,,,3′ processing,Mn2+,24 µM
CC(C)C[C@H](NC(=O)[C@@H](N)CC(=O)O)C(=O)NC(CCO)C(=O)ON[C@@H](Cc1cnc[nH]1)C(=O)N[C@@H](C)C(=O)N[C@@H](CCC(N)=O)C(=O)O,,,3′ processing,,30 µM
CC(C)(C)c1cc(/C=C2/SC(=S)N(NC(=S)C(=O)Nc3ccc(O)cc3)C2=O)c(O)c(C(C)(C)C)c1,,,strand transfer,,>100 µM
O=C1c2c(ccc(O)c2O)CN1Cc1ccccc1,,,3′ processing,,>333 µM
CCOP(=O)(O)CCNC(=O)c1c(O)c2ncc(Cc3ccc(F)cc3)cc2n(C)c1=O,,,strand transfer,,<0.1 µM
Cc1ccnc(NS(=O)(=O)c2ccc(N=Nc3cc4ccccc4c(C(=O)O)c3O)cc2)n1,,,3′ processing,Mn2+,18 µM
COc1cc(NC2=C(Cl)C(=O)C(Nc3cc(OC)c(OC)c(OC)c3)C(Cl)C2=O)cc(OC)c1OC,,,3′ processing,,>250 µM
O=C1c2ccc(O)c(O)c2C(=O)c2c(O)ccc(O)c21,,,,,4 µM
COc1ccc(=NC(C)=O)c2c(O)c3c(=O)c4[nH]c5c(OC)ccc(=NC(C)=O)c5c(O)c4c(=O)c3[nH]c12,,,3′ processing,,>250 µM
Cc1nc2c(-c3ccc(Br)cc3)cccc2c(-c2ccc3c(c2)OCCO3)c1C(OC(C)(C)C)C(=O)O,,,strand transfer / fluorescence,,0.05 µM
COC(=O)C(=O)CC(=O)c1cccn1Cc1ccc(F)cc1,,,binding,,1.89 µM
CCOP(=O)(CCNC(=O)c1c(O)c2ncc(Cc3ccc(F)cc3)cc2n(C)c1=O)NCCOC,,,strand transfer,,<0.1 µM
CC(=O)Oc1cc(OC(C)=O)c2c(c1)C(=O)c1cc(C)cc(OC(C)=O)c1C2=O,,,3′ processing,Mn2+,>200 µM
Cn1c(=O)c2c(nc3sc4c(n32)C(=O)c2c(O)ccc(O)c2C4=O)n(C)c1=O,,,3′ processing,,18 µM
CCOC(=O)C(C(=O)OCC)c1cn(S(=O)(=O)c2ccc(C)cc2)c2ccc(NC(=O)c3cccc([N+](=O)[O-])c3)cc12,,G140S,strand transfer / fluorescence,,20.3 µM
C[C@@H]1O[C@@H](Oc2c(-c3cc(O)c(O)c(O)c3)oc3cc(O)cc(O)c3c2=O)[C@H](O)[C@H](O)[C@H]1O,,,3′ processing,,39.81 µM
COC(=O)C(=O)OC1(C(=O)O)C[C@@H](OC(=O)/C=C/c2ccc(O)c(O)c2)C(O)[C@H](OC(=O)/C=C/c2ccc(O)c(O)c2)C1,LAI,,,,0.84 µM
C[C@@H]1CC[C@@]23COC(=O)C2=CCCC3[C@@]1(C)CCC1=CC(=O)OC1O,,,strand transfer / absorbance,,34.66 µM
O=c1cc2c(=O)oc3cc(O)c(O)oc3c2c(O)c1O,,,3′ processing,,2.9 µM
O=C1c2c(O)c(=O)n(CC(c3ccncc3)N3CCOCC3)c(=O)n2CCN1Cc1ccc(F)cc1,,,strand transfer,,<10 µM
CCOP(=O)(O)CNC(=O)c1c(O)c2ncc(Cc3ccc(F)cc3)cc2n(C)c1=O,,,strand transfer,,<0.1 µM
Cc1cc2c(cc1Cl)SC(NNc1cnc3ccccc3n1)=NS2(=O)=O,,,3′ processing,,127 µM
CO[C@H]1/C=C/O[C@@]2(C)Oc3c(C)c(O)c4c(O)c(c(/C=N/N5C(C)CN(Cc6ccc([N+](=O)[O-])cc6)CC5C)c(O)c4c3C2=O)NC(=O)/C(C)=C\C=C\[C@H](C)[C@H](O)[C@@H](C)[C@@H](O)[C@@H](C)[C@H](OC(C)=O)[C@@H]1C,RF,,strand transfer,,19.7 µM
O=C1c2ccc(O)c(O)c2C(=O)N1Cc1ccc(F)c(F)c1,,,strand transfer,,0.4 µM
O=C1c2cccc(O)c2C(=O)c2c(O)cccc21,,,disintegration,,>40 µM
CC1(O)CC2(O)C=CC3=C(C(=O)c4cccc(O)c4C3=O)C2(O)C(=O)C1O,,,3′ processing,,>250 µM
CCOC(=O)CC(=O)c1cccn1Cc1ccc(F)cc1,,,strand transfer,,>100 µM
COc1cc(O)c2c(=O)c(O)c(-c3ccc(O)c(O)c3)oc2c1,,,3′ processing,,61.66 µM
CCCCS(=O)(=O)c1ccc(Oc2cc(O)c3c(c2N)C(=O)c2ccccc2C3=O)cc1,,,3′ processing,Mn2+,>200 µM
C[C@H](Cn1cnc2c(N)ncnc21)OCP(=O)(O)O,,,3′ processing,,375 µM
O=C1c2c(O)c(=O)n(-c3ccc(N4CCOCC4)cc3)c(=O)n2CCN1Cc1ccc(F)cc1,,,strand transfer,,<10 µM
CCOC(=O)C(C(=O)OCC)c1cn(S(=O)(=O)c2ccc(C)cc2)c2ccc(NC(=O)c3cc(F)c(F)c(F)c3)cc12,,G140S,strand transfer / fluorescence,,>25 µM
O=c1c(O)c(-c2cc(O)c(O)c(O)c2)oc2cc(O)ccc12,,,3′ processing,,5.89 µM
O=C1N[C@@H]2C(=C[C@H](O)[C@@H](O)[C@H]2O)c2cc3c(c(O)c21)OCO3,,,3′ processing,,>250 µM
CCOP(=O)(CNC(=O)c1c(O)c2ncc(Cc3ccc(F)cc3)cc2n(CCN2CCCC2=O)c1=O)OCC,,,strand transfer,,<0.1 µM
CCOC(=O)c1c(-c2ccccc2)nc(=O)n(Cc2ccc(Cc3cccc(/C(O)=C/C(=O)C(=O)O)c3)cc2)c1CC,,,3′ processing / radiometric,,22.5 µM
CC(C)c1ccc(C(c2ccc(OCC(=O)O)cc2)c2ccc(C(C)C)cc(=O)c2O)c(O)c(=O)c1,RF,,strand transfer,,2.3 µM
CN1CCN(C2(Cn3c(=O)c(O)c4n(c3=O)CCN(Cc3ccc(F)cc3)C4=O)CCCCC2)CC1,,,strand transfer,,<10 µM
Nc1ncnc2c1ncn2CCOCP(=O)(O)O,,,3′ processing,,840 µM
O=c1cc(-c2ccccc2)oc2cc(O)c(O)c(O)c12,,,strand transfer / absorbance,,1.36 µM
O=C1c2c(O)c(=O)n(C3CCCCN(Cc4ccccc4)C3=O)c(=O)n2CCN1Cc1ccc(F)cc1,,,strand transfer,,<10 µM

A second listing of 7 rows from above:

{"SMILES": "O=C(O)c1cc2ccccc2c(N=Nc2ccc(S(=O)(=O)Nc3nccs3)cc2)c1O", "read by": "3′ processing", "setting": "Mn2+", "value": "24 µM"}
{"SMILES": "CCOC(=O)C(C(=O)OCC)c1cn(Cc2cc(F)ccc2F)c2ccc(F)cc12", "mutations": "G140S", "read by": "strand transfer / fluorescence", "value": "25.4 µM"}
{"SMILES": "CCOP(=O)(O)CCCCNC(=O)c1c(O)c2ncc(Cc3ccc(F)cc3)cc2n(C)c1=O", "read by": "strand transfer", "value": "<0.1 µM"}
{"SMILES": "C[C@@H]1O[C@@H](Oc2c(-c3cc(O)c(O)c(O)c3)oc3cc(O)cc(O)c3c2=O)[C@H](O)[C@H](O)[C@H]1O", "read by": "3′ processing", "value": "39.81 µM"}
{"SMILES": "Cc1nc2c(-c3ccc(Br)cc3)cccc2c(-c2ccc3c(c2)OCCO3)c1C(OC(C)(C)C)C(=O)O", "read by": "strand transfer / fluorescence", "value": "0.05 µM"}
{"SMILES": "O=c1c(O)c(-c2cc(O)c(O)c(O)c2)oc2cc(O)ccc12", "read by": "3′ processing", "value": "5.89 µM"}
{"SMILES": "Cn1c(=O)c2c(nc3sc4c(n32)C(=O)c2c(O)ccc(O)c2C4=O)n(C)c1=O", "read by": "3′ processing", "value": "18 µM"}

Blank or dashed fields: not listed here. Conditions beyond the fields shown may differ between rows.